Measured values from several laboratories, pooled; numbers as filed in NIAID ChemDB.

Common to all: tests in culture; agent: HIV-1; method: MTT; endpoint: EC50

Blank or dashed fields: not listed here. Neighbouring rows are from separate reports. ECn is the concentration giving n% inhibition of infection, replication or growth.

compound | strain or isolate | mutations | cell line | setting | result
Nc1ncnc2c1ncn2[C@@H]1C=C(F)[C@H](CO)[C@H]1CO | IIIB | - | MT-2 | - | >1 µM
O=C1Nc2ccc(Cl)cc2[C@@](C#CC2CC2)(C(F)(F)F)O1 | - | EFV-resistant (K103R V179D P225H) | MT-4 | - | 12 µM
Cc1c(C(C)c2ccccc2)n(COCc2ccccc2)c(=O)[nH]c1=O | IIIB | - | MT-4 | - | >357 µM
Nc1ncnc2c1ncn2[C@@H]1C=C(I)[C@H](CO)[C@H]1CO | IIIB | - | MT-2 | - | >1 µM
C#Cc1ccc(Nc2nccc(Oc3c(C)cc(-c4cn(CCc5cccs5)nn4)cc3C)n2)cc1 | IIIB | - | MT-4 | - | 0.135 µM
COc1cc(Cc2c(C(C)C)c(=O)[nH]c(=O)n2COCCOc2ccccc2)cc(OC)c1 | IIIB | Efavirenz-resistant (K103R + V179D + P225H) | MT-4 | - | >33 µM
CCCC(C(=O)O)c1c(-c2ccccc2)c2cc(Cl)ccc2n(CCC)c1=O | - | - | MT-4 | - | 10.8 µM
Cc1ccccc1C(C)(O)c1c(C)c(=O)[nH]c(=O)n1COCc1ccccc1 | IIIB | - | MT-4 | - | >175 µM
COc1ccc(CSc2nc(C(C)c3c(F)cccc3F)c(C)c(=O)[nH]2)cc1 | IIIB | - | MT-4 | - | 0.000025 µM
CNC(=O)c1cccc(-c2ccc(C[C@H](NC[C@@H](NC(=O)OC)C(C)(C)C)[C@@H](O)C[C@H](Cc3ccccc3)NC(=O)[C@@H](NC(=O)OC)C(C)(C)C)cc2)c1 | pNL4-3 | - | MT-4 | - | 159 nM
CC1=C(C(=O)Nc2ccccc2)C2=NN=C(N)C2C(=O)N1 | IIIB | - | MT-4 | - | 94.7 µg/mL
O=C1C=C[C@H](n2ccc(=O)n(C(=O)c3ccccc3)c2=O)CC1 | NL4-3 | - | MT-4 | - | >10.1 µg/mL
CC(C)[C@H](C)CC[C@](C)(O)[C@H]1C(=O)C[C@H]2[C@@H]3C(=O)C=C4C[C@@H](O)CC[C@]4(C)[C@H]3CC[C@@]21C | NL4-3 | - | MT-4 | - | 0.09 µM
CCCC(C(=O)O)c1c(C)nc2sc3c(c2c1C(C)(C)C)CCCC3 | IIIB | - | MT-4 | - | >131 µM
Cc1cc(/C=C/C#N)cc(C)c1Oc1nc(NC2CCN(Cc3ccc(C#N)cc3)CC2)nc2ccsc12 | IIIB | NNRTI-resistant (RT F227L V106A) | MT-4 | - | 0.0227 µM
Clc1ncnc2c1ncn2[C@H]1C=CC2(CC1)O[C@H](c1ccccc1)[C@@H](c1ccccc1)O2 | NL4-3 | - | MT-4 | - | >6.4 µg/mL
CC(C)c1c(Cc2ccccc2)n(COCCOc2ccccc2)c(=O)[nH]c1=O | IIIB | - | MT-4 | - | 0.06 µM
COc1ccnc(Nc2ccc(C#N)c(Oc3cccc(/C=C/C#N)c3)c2)n1 | IIIB | - | MT-2 | - | 0.26 µM
CCOC(=O)c1ccc(CN2CCC(Nc3nc(Oc4c(C)cc(C#N)cc4C)c4ccsc4n3)CC2)cc1 | IIIB | NNRTI-resistant (RT Y181C) | MT-4 | - | 1.11 µM
Cc1cc(/C=C/C#N)cc(Oc2cc(Nc3ncnc(C4CC4)n3)ccc2C#N)c1 | IIIB | - | MT-2 | - | 0.0017 µM
CCC(c1ccccc1OC)c1c(C)c(=O)[nH]c(=O)n1COCc1ccccc1 | IIIB | - | MT-4 | - | >32.35 µM
Nc1ncnc2c1ncn2[C@@H]1C=CC(O)CC1 | NL4-3 | - | MT-4 | - | >25 µg/mL
N#Cc1ccc(Nc2nccc(C3CC3)n2)cc1Oc1cc(F)cc(F)c1 | IIIB | - | MT-2 | - | 0.78 µM
COC(=O)N[C@H](C(=O)N[C@@H](Cc1ccccc1)C[C@H](O)[C@H](Cc1ccc(-c2ccc(O)cc2)cc1)NC[C@@H](NC(=O)OC)C(C)(C)C)C(C)(C)C | pNL4-3 | - | MT-4 | 50% human serum | 71 nM
CCc1c(Cc2cc(C)cc(C)c2)nc(SC)[nH]c1=O | - | - | MT-4 | - | 2 µM
Cc1ccccc1C(c1c(C)c(=O)[nH]c(=O)n1COCc1ccccc1)C(C)C | IIIB | - | MT-4 | - | >34.7 µM
Cc1cc(/C=C/C#N)cc(C)c1Oc1nc(NC2CCN(Cc3cccc(C(N)=O)c3)CC2)nc2ccsc12 | IIIB | NNRTI-resistant (RT Y188L) | MT-4 | - | 0.0274 µM
COC(=O)N[C@H](C(=O)N[C@@H](Cc1ccccc1)C[C@H](O)[C@H](Cc1ccc(-c2cccc(N)c2)cc1)NC[C@@H](NC(=O)OC)C(C)(C)C)C(C)(C)C | pNL4-3 | - | MT-4 | - | 5 nM
Cc1cc(/C=C/C#N)cc(C)c1Oc1ccnc(Nc2ccc(CN3CCN(S(=O)(=O)N(C)C)CC3)cc2)n1 | - | Y181C | MT-4 | - | 0.092 µM
Cc1cc(/C=C/C#N)cc(C)c1Oc1nc(NC2CCN(Cc3ccc([N+](=O)[O-])cc3)CC2)nc2ccsc12 | IIIB | NNRTI-resistant (RT Y181C) | MT-4 | - | 0.0307 µM
CCc1ccnc(Nc2ccc(C#N)c(Oc3cccc(/C=C/C#N)c3)c2)n1 | IIIB | - | MT-2 | - | 0.048 µM
C#Cc1ccc(Nc2nccc(Oc3c(C)cc(-c4cn(Cc5ccc(C(=O)OC)cc5)nn4)cc3C)n2)cc1 | IIIB | L100I | MT-4 | - | 1.86 µM
COC(=O)N[C@H](C(=O)N[C@@H](Cc1ccccc1)C[C@H](O)[C@H](Cc1ccc(-c2ccncc2)cc1)NC[C@@H](NC(=O)OC)C(C)(C)C)C(C)(C)C | pNL4-3 | - | MT-4 | - | 13 nM
N#Cc1ccc(Nc2nc(Oc3c(F)cc(-c4ccc(C#N)cc4)cc3F)c3sccc3n2)cc1 | IIIB | E138K | MT-4 | - | 0.0166 µM
Cc1cn([C@H]2C[C@H](N=[N+]=[N-])[C@@H](CO)O2)c(=O)[nH]c1=O | IIIB | E138K | MT-4 | - | 0.035 µM
O=C(c1ccccc1)n1c(=O)ccn([C@@H]2C=CC3(CC2)O[C@H](c2ccccc2)[C@@H](c2ccccc2)O3)c1=O | NL4-3 | - | MT-4 | - | >25 µg/mL
Cc1cc(C#CCCO)cc(C)c1Oc1ccnc(Nc2ccc(C#N)cc2)n1 | IIIB | - | MT-4 | - | 0.003 µM
COC(=O)N[C@H](C(=O)N[C@@H](Cc1ccccc1)C[C@H](O)[C@H](Cc1ccc(-c2cccnc2)cc1)NC[C@@H](NC(=O)OC)C(C)(C)C)C(C)(C)C | pNL4-3 | - | MT-4 | - | 11 nM
C=C(c1ccc(Cl)cc1)c1c(C)c(=O)[nH]c(=O)n1COCc1ccccc1 | IIIB | - | MT-4 | - | >34.49 µM
COC(=O)N[C@H](C(=O)N[C@@H](Cc1ccccc1)C[C@H](O)[C@H](Cc1ccc(-c2ccc(N)cc2)cc1)NC[C@@H](NC(=O)OC)C(C)(C)C)C(C)(C)C | pNL4-3 | - | MT-4 | 50% human serum | 38 nM
CC(C)c1c(C(C)c2ccc(F)cc2)n(COCc2ccccc2)c(=O)[nH]c1=O | IIIB | L100I | MT-4 | - | 8.35 µM
Cc1ccnc2c1NC(=O)c1cccnc1N2C1CC1 | - | MDR (74V 41L 106A 215Y) | MT-4 | - | 5 µM
O=c1ccn([C@H]2C=C[C@@H](O)CC2)c(=O)[nH]1 | NL4-3 | - | MT-4 | - | >25 µg/mL
CCc1c(Cc2cc(OC)cc(OC)c2)[nH]c(=S)[nH]c1=O | A17 | K103N + Y181C | MT-4 | - | >100 µM
COc1ccccc1NC(=O)C1=C(C)NC(=O)C2C(N)=NN=C12 | IIIB | - | MT-4 | - | 100 µg/mL
COc1cc(Cc2[nH]c(=O)[nH]c(=O)c2C(C)C)cc(OC)c1 | A17 | K103N + Y181C | MT-4 | - | >100 µM
Cc1ccccc1C(C)c1c(C)c(=O)[nH]c(=O)n1COCc1ccccc1 | IIIB | - | MT-4 | - | 23.21 µM
CSC1=NC2(C[C@@H]2c2ccccc2)C(=O)N1C(C)=O | NDK | - | MT-4/C8166 + MT-4 | - | 26 µg/mL
Cc1cc(C#N)cc(C)c1Oc1nc(NC2CCC(NCc3ccc(S(C)(=O)=O)cc3)CC2)nc2ccsc12 | IIIB | NNRTI-resistant (RT E138K) | MT-4 | - | 0.135 µM
O=C(O)/C=C\c1ccc(O)c(O)c1/C(=C/c1ccc(O)c(O)c1)C(=O)O | IIIB | - | MT-4 | - | >6.4 µM
Cc1cc(/C=C/C#N)cc(C)c1Oc1nc(NC2CCN(Cc3ccc(Br)cc3)CC2)nc2ccsc12 | IIIB | NNRTI-resistant (RT Y188L) | MT-4 | - | 0.287 µM
COc1ccnc(Nc2ccc(C#N)c(Sc3cccc(C)c3)c2)n1 | IIIB | - | MT-2 | - | 0.062 µM
CC1=C(C(=O)Nc2ccc(C)cc2)C2=NN=C(N)C2C(=O)N1 | IIIB | - | MT-4 | - | 100 µg/mL
Cc1cc(-c2ccc(C#N)cc2)cc(Cl)c1Oc1nc(Nc2ccc(C#N)cc2)nc2ccsc12 | IIIB | Y181C | MT-2 | - | 0.0487 µM

The last 4 rows once more:

compound | strain or isolate | mutations | cell line | setting | result
Cc1cc(/C=C/C#N)cc(C)c1Oc1nc(NC2CCN(Cc3ccc(Br)cc3)CC2)nc2ccsc12 | IIIB | NNRTI-resistant (RT Y188L) | MT-4 | - | 0.287 µM
COc1ccnc(Nc2ccc(C#N)c(Sc3cccc(C)c3)c2)n1 | IIIB | - | MT-2 | - | 0.062 µM
CC1=C(C(=O)Nc2ccc(C)cc2)C2=NN=C(N)C2C(=O)N1 | IIIB | - | MT-4 | - | 100 µg/mL
Cc1cc(-c2ccc(C#N)cc2)cc(Cl)c1Oc1nc(Nc2ccc(C#N)cc2)nc2ccsc12 | IIIB | Y181C | MT-2 | - | 0.0487 µM